In the test the target is SARS-CoV-2 nsp13 helicase (Severe acute respiratory syndrome coronavirus 2, UniProt P0DTD1). The experiment in a line: FRET-based nsp13 helicase assay. Type of test: biochemical. Conditions: read-out: IC50 No detergent.

For orientation: IC50 means the concentration that gives 50% inhibition. On to `Cn1cc(-c2ccc3ncc(Cc4ccc5ncccc5c4)n3n2)cn1`, for which the IC50 came out at 75 µM.

For the origin of these results see publication PMC8286831, “Identifying SARS-CoV-2 antiviral compounds by screening for small molecule inhibitors of nsp13 helicase” (Biochemical Journal, 2021).
